Measurements published in PubChem BioAssay AID602276 (University of Pittsburgh Molecular Library Screening Center, 2012).
This is a selection; strong and weak results do not stand in their true shares. Active and inactive are the calls of the source.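 The calls were made as follows: active = inhibition at or above 50% at 10 µM; inactive = inhibition below 50%.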

Experiment: blockers of RIG-like receptor reporter activation – cell-based, Sendai virus stimulus, luciferase, 10K MLSCN set, TLR/RLR signaling modifier project, primary screen (AID 602276);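 also: firefly luciferase from ISG56 promoter only with Renilla not read in this screen; 0% = Sendai virus plus DMSO and 100% = medium plus DMSO without virus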
Details: HEK293 RL24 IRF3 luciferase reporter, at 10 µM, hits give high values

Question: For `COP1(=S)c2c(C)nn(CCC#N)c2N=C(c2ccc(F)cc2)N1C` (stereo not given), which inhibition is on record?
Answer: Its inhibition is inactive: 10.1%.

Question: For `O=C(COc1ccccc1)OC1CN2CCC1CC2` (stereo not given), which inhibition is on record?
Answer: The inhibition was inactive: -4.7%.

Question: With `CCOP1(=S)c2c(C)nn(CCC#N)c2N=C(c2ccccc2F)N1C` (stereo not given) as the molecule, how does the inhibition read?
Answer: The inhibition was inactive: -6.36%.

Question: For `Cc1nn(-c2ccccc2)c2c1P(=O)(N1CCOCC1)N(C)C(c1ccccc1)=N2` (stereo not given), which inhibition is on record?
Answer: Its inhibition is inactive: -10.5%.

Question: For `O=P(Nc1nccs1)(c1ccccc1)c1ccccc1`, which inhibition is on record?
Answer: The inhibition was inactive: 7.15%.
